For this experiment, the target named is LecB (PA-IIL) (Pseudomonas aeruginosa, UniProt Q9HYN5). In words: isothermal titration calorimetry. The format is binding. The conditions noted are these: read-out: LecB / KD; 25 °C, pH 7.5 (20 mM Tris/HCl, 150 mM NaCl, 0.03 mM CaCl2); SD below 15%; some table ligands may carry one more reducing-end sugar (italics lost). On the technique in general: ITC needs no label: the signal is the heat of the interaction.

The chains behind the UniProt entries cited, without tags or fusion partners. Residues count along the entry.
UniProt Q9HYN5, 2-115 limits assumed: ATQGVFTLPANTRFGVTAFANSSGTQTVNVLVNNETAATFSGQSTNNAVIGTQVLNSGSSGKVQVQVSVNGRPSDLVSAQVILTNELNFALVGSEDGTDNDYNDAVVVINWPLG

1 compound from article PMC3747263 (PLoS ONE, 2013) can be followed below.

On to `CC(=O)N[C@H]1[C@H]([C@H](O)[C@H](O)CO)O[C@@](O[C@H]2[C@@H](O)[C@@H](CO)O[C@@H](O[C@H]3[C@H](O[C@@H]4O[C@@H](C)[C@@H](O)[C@@H](O)[C@@H]4O)[C@@H](NC(C)=O)C(O)O[C@@H]3CO)[C@@H]2O)(C(=O)O)C[C@@H]1O` (stereo partly shown), for which the Kd stood at 5.7 µM.
